PubChem BioAssay AID1259414, Drosophila RNAi Screening Center | 2018

Screen: 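Host factors increasing or decreasing Wolbachia levels in cultured fly cells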 (primary screen)
Cells: Drosophila JW18 cells infected with Wolbachia
Reagent: long dsRNA against Drosophila genes, 0.25 µg dsRNA per well of a 384-well plate
Time to read-out: 5 days
Treatment: cells persistently infected with Wolbachia before knock-down; no added drug
Measurement: 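Imaged fluorescence in situ signal for Wolbachia 23S rRNA per DAPI-counted host cell, given as a robust z-score within each plate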
Reading the numbers: Wolbachia per cell robust z: higher = more Wolbachia per host cell than the plate typical
Active means: 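Hit when robust z is 1.5 or more, or -1.5 or less, in at least two of three replicates; excludes dsRNAs with several or no targets, genes not expressed in JW18 and well A1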
In all, the deposit lists about 24,000 reagents; this is an unselected part of those that have a named target and a result. Over the whole deposit, about 1,210 (5%) are marked active. 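Inactive calls also include excluded dsRNAs with several or no targets, genes unexpressed in JW18, and well A1, regardless of score.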 Names joined by + are all predicted targets of the reagent.

| target gene | PubChem SID | Wolbachia per cell robust z, rep 1 | Wolbachia per cell robust z, rep 2 | Wolbachia per cell robust z, rep 3 | Call |
| --- | --- | --- | --- | --- | --- |
| Mgat1 | SID104187255 | 0.846 | 0.904 | 1.19 | inactive |
| Diap1 | SID104191196 | 0.477 | 0.7 | -0.409 | inactive |
| CG11162 | SID104199183 | 0.509 | 0.842 | -0.832 | inactive |
| CG11162 | SID104201978 | 0.946 | 0.701 | -0.589 | inactive |
| btsz | SID104195112 | 0.172 | 1.4 | 0.594 | inactive |
| btsz | SID104196023 | -1.92 | -0.841 | -2.1 | inactive |
| btsz | SID104202607 | -2.91 | 0.323 | 0.148 | inactive |
| btsz | SID104207411 | 0.348 | 1.08 | -0.0224 | inactive |
| CG14151 | SID104189945 | -0.788 | 0.604 | 0.933 | inactive |
| CG11593 | SID104187998 | -0.941 | -0.689 | 0.0247 | inactive |
| CG5758 | SID104182681 | -1.96 | -0.455 | -0.145 | inactive |
| CG5758 | SID104182682 | -0.296 | -0.0699 | 0.355 | inactive |
| CG5758 | SID104208202 | 0.519 | -0.25 | 0.0571 | inactive |
| CG33306 | SID104181691 | -0.179 | 0.308 | -0.0123 | inactive |
| CG33306 | SID104207731 | 0.375 | -0.0263 | 1.21 | inactive |
| CG8298 | SID104186930 | 0.404 | -1.18 | -0.751 | inactive |
| CG7218 | SID104196008 | 0.258 | -0.946 | 0.245 | inactive |
| CG7218 | SID104206094 | -0.0392 | -1.13 | 0.28 | inactive |
| BomBc1 | SID104186293 | 0.491 | 0.0225 | 0.115 | inactive |
| BomBc1 | SID104202863 | -1.48 | -0.842 | -1.31 | inactive |
| wdp | SID104184159 | -0.712 | -0.544 | 0.59 | inactive |
| wdp | SID104207125 | -0.219 | -0.619 | 0.12 | inactive |
| CG9662 | SID104180515 | 0.386 | 0.214 | -0.0572 | inactive |
| Prx6c | SID104185872 | -0.719 | 0.307 | -0.0712 | inactive |
| Prx6c | SID104207142 | -0.857 | 1.25 | 1.06 | inactive |
| RpS26 | SID104183212 | 8.13 | 3.69 | 8.63 | active |
| Jhbp2 | SID104192084 | -0.407 | 0.199 | -0.407 | inactive |
| chico | SID104183323 | -0.304 | 0.27 | -0.0516 | inactive |
| chico | SID104218437 | -0.721 | -0.221 | -0.362 | inactive |
| Ctns | SID104194967 | 0.544 | 0.269 | 1.16 | inactive |
| Nufip | SID104190189 | 0.362 | 0.593 | 0.538 | inactive |
| CG30273 | SID104201635 | -0.886 | 0.00607 | -0.106 | inactive |
| CG30273 | SID104204065 | 0.0429 | -0.0436 | -0.517 | inactive |
| MME1 | SID104182506 | -0.819 | 0.0834 | -0.86 | inactive |
| Galphaq | SID104187224 | -0.618 | -1.21 | -0.739 | inactive |
| Galphaq | SID104203887 | 0.563 | 0.0601 | -0.641 | inactive |
| CG10154 | SID104189499 | -1.06 | 0.952 | 0.979 | inactive |
| cGlr1 | SID104186062 | -0.228 | 0.478 | -2.59 | inactive |
| aub | SID104183278 | -0.648 | -0.613 | -0.224 | inactive |
| aub | SID104205422 | -0.246 | -1.3 | -0.946 | inactive |
| Dcp-1 | SID104184401 | 0.259 | -0.73 | -0.0739 | inactive |
| robl37BC | SID104182264 | 1.01 | 1 | -0.408 | inactive |
| CG13380 + CG4174 | SID104189780 | 0.0362 | 0.183 | 0.489 | inactive |
| CG13380 + CG4174 | SID104190198 | -1.62 | -0.296 | 1.01 | inactive |
| CG17118 | SID104182371 | 1.23 | 0.672 | -0.432 | inactive |
| CG2794 | SID104180326 | 0.11 | 0.526 | -0.65 | inactive |
| CG2794 | SID104218944 | -2.42 | 0.551 | -1.98 | active |
| AANATL5 | SID104185786 | -2.87 | 0.335 | -1.94 | inactive |
| CG13005 | SID104199316 | 0.0777 | 1.22 | 0.364 | inactive |

Sorted by “Wolbachia per cell robust z, rep 3” (low to high): 5 of the entries above.
| target gene | PubChem SID | Wolbachia per cell robust z, rep 1 | Wolbachia per cell robust z, rep 2 | Wolbachia per cell robust z, rep 3 | Call |
| --- | --- | --- | --- | --- | --- |
| BomBc1 | SID104202863 | -1.48 | -0.842 | -1.31 | inactive |
| BomBc1 | SID104186293 | 0.491 | 0.0225 | 0.115 | inactive |
| CG7218 | SID104196008 | 0.258 | -0.946 | 0.245 | inactive |
| CG7218 | SID104206094 | -0.0392 | -1.13 | 0.28 | inactive |
| wdp | SID104184159 | -0.712 | -0.544 | 0.59 | inactive |

More records follow.
| target gene | PubChem SID | Wolbachia per cell robust z, rep 1 | Wolbachia per cell robust z, rep 2 | Wolbachia per cell robust z, rep 3 | Call |
| --- | --- | --- | --- | --- | --- |
| CG42302 | SID104218213 | 0.748 | 1.39 | 0.516 | inactive |
| CG6431 | SID104182748 | 1.53 | -0.73 | -0.738 | inactive |
| Blos4 | SID104189943 | -0.162 | 0.851 | 0.17 | inactive |
| Blos4 | SID104206077 | -0.0685 | 2.06 | -0.17 | inactive |
| hng3 | SID104188159 | -3.72 | -0.0748 | 0.0515 | inactive |
| hng3 | SID104207806 | -0.774 | -1.31 | -2.8 | inactive |
| CBP | SID104197538 | -0.649 | 0.296 | 0.435 | inactive |
| Cyp316a1 | SID104190922 | -0.0903 | 1.13 | 1.19 | inactive |
| Cyp316a1 | SID104207603 | 0.955 | 1.37 | 0.537 | inactive |
| Vps28 | SID104185960 | 0.215 | 0.808 | 0.537 | inactive |
| ssp7 | SID104198670 | -4.74 | -0.442 | -1.36 | inactive |
| CG6553 | SID104186794 | -3.99 | -0.562 | -0.0846 | inactive |
| swa | SID104198634 | 0.897 | 0.353 | 0.225 | inactive |
| swa | SID104204100 | -0.0814 | -0.808 | -0.643 | inactive |
| ktub | SID104184343 | -0.0109 | 0.524 | -0.561 | inactive |
| l(3)80Fg + CR41320 | SID104216157 | 1.72 | 0.0229 | -0.0456 | inactive |
| Tsp68C | SID104189087 | -0.196 | -0.543 | -0.832 | inactive |
| Tsp68C | SID104207486 | 1.1 | 0.101 | -0.836 | inactive |
| VhaM9.7-a | SID104188081 | -1.07 | -0.226 | -1.45 | inactive |
| VhaM9.7-a | SID104206884 | -1.79 | -0.959 | -1.67 | inactive |
| CG13896 | SID104188158 | 0.079 | -3 | 0.702 | inactive |
| CG32104 | SID104189919 | -1.36 | -1.16 | -0.613 | inactive |
| CG32104 | SID104189920 | -3.12 | -6.25 | -1.54 | active |
| CG7903 | SID104196130 | 1.16 | -4.02 | -0.479 | inactive |
| CG7903 | SID104208497 | -3.13 | 0.27 | 0.617 | inactive |
| eIF4EHP | SID104193445 | 0.28 | -0.00453 | 0.307 | inactive |
| eIF4EHP | SID104194057 | -1.91 | -0.787 | -0.0351 | inactive |
| Lrp4 | SID104199910 | 0.518 | -5.76 | 1.68 | inactive |
| CG6418 | SID104190425 | 0.103 | 0.778 | 0.855 | inactive |
| CG6418 | SID104206165 | 1.11 | -0.148 | 0.612 | inactive |
| CG10132 | SID104181805 | 0.103 | 0.698 | 0.678 | inactive |
| CG10132 | SID104206434 | -0.897 | 0.0572 | 0.186 | inactive |
| CG10132 | SID104219110 | 0.68 | 1.02 | 0.697 | inactive |
| CG3483 | SID104184163 | -0.526 | -0.561 | -0.487 | inactive |
| mtgo | SID104182561 | -0.0257 | 0.325 | 0.981 | inactive |
| mtgo | SID104201156 | 0.929 | -0.739 | 0.809 | inactive |
| mtgo | SID104201412 | 0.205 | 0.147 | 0.963 | inactive |
| mtgo | SID104206246 | -0.146 | 0.944 | 1.54 | inactive |
